Laboratory results from patent US12559545.

Target: NiVM RBP on live Nipah virus Malaysia (P3 stock with N277K polymorphism) (Nipah virus, strain Malaysia)
Experiment: cell-based or functional assay

## HENV-26 (antibody)
  Area under the curve (neutralization): 293
  IC50, plaque reduction neutralization of live virus: 0.04 µg/mL
